Results from cells or extracts need not show a direct contact. For some of these results: Protein sequences can lack the tags named with them. For some of these results: The exact form of at least one protein or probe is not confirmed.
Legend:
Test in all cases: EMSA
[1] = test system: VP16-induced complex: Oct-1 POU domain + GST-VP16 + Spodoptera HCF (Sf9 extract); settings: protein in an extract; protein details: GST on VP16; label: 32P end
[2] = test system: VP16-induced complex: Oct-1 POU domain + GST-VP16 + Drosophila HCF (SL2 extract); settings: requires both VP16 and Oct-1 POU; protein in an extract; protein details: GST on VP16; label: 32P end
[3] = target: T1, Oct-1 (endogenous, HeLa nuclear extract) (Homo sapiens) (UniProt P14859); settings: HeLa nuclear extract, 30 C, poly d(IC); protein in an extract; label: 32P end
T1 sequence (looked up, limits assumed): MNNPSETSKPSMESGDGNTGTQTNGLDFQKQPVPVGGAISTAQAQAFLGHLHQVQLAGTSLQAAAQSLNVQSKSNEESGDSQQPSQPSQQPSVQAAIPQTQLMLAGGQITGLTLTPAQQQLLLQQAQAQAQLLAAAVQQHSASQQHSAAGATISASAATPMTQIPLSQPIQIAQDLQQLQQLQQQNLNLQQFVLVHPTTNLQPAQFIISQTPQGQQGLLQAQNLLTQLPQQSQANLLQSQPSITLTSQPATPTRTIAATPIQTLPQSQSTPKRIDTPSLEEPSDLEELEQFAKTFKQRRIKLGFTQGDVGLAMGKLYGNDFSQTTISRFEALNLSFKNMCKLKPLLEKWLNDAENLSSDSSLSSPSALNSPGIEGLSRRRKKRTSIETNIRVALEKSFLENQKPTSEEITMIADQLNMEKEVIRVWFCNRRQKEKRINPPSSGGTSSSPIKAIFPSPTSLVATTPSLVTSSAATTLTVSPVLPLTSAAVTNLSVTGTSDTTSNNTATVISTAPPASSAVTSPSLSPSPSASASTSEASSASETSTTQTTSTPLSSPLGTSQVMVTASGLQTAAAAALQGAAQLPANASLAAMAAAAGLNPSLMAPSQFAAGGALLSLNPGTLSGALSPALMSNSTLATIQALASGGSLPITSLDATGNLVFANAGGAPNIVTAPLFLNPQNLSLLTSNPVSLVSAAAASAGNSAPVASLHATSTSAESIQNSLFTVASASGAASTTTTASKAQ

[4] = test system: VP16-induced complex: Oct-1 + GST-VP16 + HCF (HeLa nuclear extract) (Homo sapiens / Herpes simplex virus); settings: slower migrating VP16-induced complex; protein in an extract; protein details: GST on VP16 (VP16 residues 5-411, deltaC); label: 32P end

Measured: binding result

ATGCTAATGATAT (double strand) [(Octa+)TAATGARAT ICP0 IE element]
binds: [1] | [2] | [3] | [4]
